According to patent publication US20240043504A1 (published 2024):

Assays:
[1] = biological target: Human SARS Coronavirus Spike Protein (Receptor Binding Domain, His Tag) (Sino 40150-V08B2) (Human SARS Coronavirus, UniProt P59594 306-527); experiment: Luminex bead binding, supernatant
[2] = biological target: T1, MERS-CoV (NCoV/Novel coronavirus) Spike Protein fragment (RBD, aa 367-606, His Tag) (Sino 40071-V08B1) (MERS-CoV, UniProt K9N5Q8 367-606); experiment: Luminex bead binding, supernatant
T1 sequence: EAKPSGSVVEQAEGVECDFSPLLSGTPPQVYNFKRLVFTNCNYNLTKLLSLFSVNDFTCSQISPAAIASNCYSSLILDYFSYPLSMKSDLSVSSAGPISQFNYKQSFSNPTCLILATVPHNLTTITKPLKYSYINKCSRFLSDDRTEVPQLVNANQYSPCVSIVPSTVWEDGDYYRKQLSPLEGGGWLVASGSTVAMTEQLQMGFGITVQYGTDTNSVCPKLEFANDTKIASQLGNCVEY

[3] = biological target: T2, Human SARS Coronavirus Spike S1 Subunit Protein (His Tag) (Sino 40150-V08B1) (Human SARS Coronavirus, UniProt P59594 14-667); experiment: Luminex bead binding, supernatant
[4] = biological target: T2, Human SARS Coronavirus Spike S1 Subunit …; experiment: Luminex bead binding, supernatant; remark: listed apart in the source
[5] = biological target: Human SARS Coronavirus Spike Protein (Receptor Binding Domain, His Tag) (Sino 40150-V08B2) (Human SARS Coronavirus, UniProt P59594 306-527); experiment: Luminex, supernatant

B1: mAb10987 (antibody, V domains shown)
VH: QVQLVESGGGVVQPGRSLRLSCAASGFTFSNYAMYWVRQAPGKGLEWVAVISYDGSNKYYADSVKGRFTISRDNSKNTLYLQMNSLRTEDTAVYYCASGSDYGDYLLVYWGQGTLVTVSS
VL: QSALTQPASVSGSPGQSITISCTGTSSDVGGYNYVSWYQQHPGKAPKLMIYDVSKRPSGVSNRFSGSKSGNTASLTISGLQSEDEADYYCNSLTSISTWVFGGGTKLTVLG
- Binding signal (MFI) [1]: 27 MFI
- Binding signal (MFI) [2]: 28 MFI

B2: mAb10970 (antibody, V domains shown)
VH: EVQLVESGGGLVQPGGSLRLSCAASGFTVSSNYMSWVRQAPGKGLEWVSVIYSGGSTYYADSVKGRFTISRDNSKNTLYLQMNRLRADDTAVYYCVRDPVGRYYYGMDVWGQGTTVTVSS
VL: not shown
- Binding signal (MFI) [3]: 19 MFI

B3: mAb10996 (antibody, V domains shown)
VH: EVQMVESGGGLVQPGGSLRLSCAASGFTVSSNYMTWVRQAPGKGLEWVSVIYSGGSTYYADSVKGRFTISRHNSKNTLYLQMNSLRAEDTAVYYCARDGVSYGMDVWGQGTTVTVSS
VL: not shown
- Binding signal (MFI) [4]: 28 MFI

B4: mAb10933 (antibody, V domains shown)
VH: QVQLVESGGGLVKPGGSLRLSCAASGFTFSDYYMSWIRQAPGKGLEWVSYITYSGSTIYYADSVKGRFTISRDNAKSSLYLQMNSLRAEDTAVYYCARDRGTTMVPFDYWGQGTLVTVSS
VL: DIQMTQSPSSLSASVGDRVTITCQASQDITNYLNWYQQKPGKAPKLLIYAASNLETGVPSRFSGSGSGTDFTFTISGLQPEDIATYYCQQYDNLPLTFGGGTKVEIKR
- MFI [5]: 31 MFI

Like-named read-outs stand apart in the source and are kept apart here.
